Pooled drug test results. Numbers come from NIAID ChemDB, via PubChem.

All rows: enzyme or target tests; organism: HIV-1; protein: Reverse transcriptase; endpoint: inhibition

Lines come from different laboratories, so protocols vary.

compound,strain,read by,dose,result
O=C(CC(=O)Nc1ccc2ccccc2n1)Nc1ccccn1,-,RT activity / absorbance,100 µM,79.18%
Cc1ccc2c(c1)Oc1nnccc1C(=O)N2C,-,ELISA,33 µM,13%
O=C(CC(=O)Nc1ccc2ccccc2n1)Nc1ccc(Cl)cn1,-,RT activity / absorbance,100 µM,65.52%
CCOc1ccc2nc(NC(=O)NCCc3ccccc3)sc2c1,-,nucleotide incorporation,0.1 µg/mL,1%
CCN1C(=O)c2cc(Cl)nnc2N(CC)c2ccccc21,-,-,33 µM,3%
CC(NC(=S)Nc1nc2ccccc2s1)c1ccccc1,-,ELISA / absorbance,10 µM,60.2%
CCCC(=O)OCCCC[C@H]1CCCCCC[C@@H](C)NC(N)=[NH+]1,-,RT activity / radiometric,40 µM,8.6%
COc1ccc2[nH]c(=O)c(CN(C(=O)c3ccccc3)C3CCCC3)cc2c1,-,RT activity / absorbance,20 µM,5.1%
CCCCCCCCCCCC(=O)OCCCC[C@H]1CCCCCC[C@@H](C)NC(N)=[NH+]1,-,RT activity / radiometric,40 µM,36.1%
Nc1ncnc2c1ncn2[C@@H](C=O)O[C@@H](C=O)COP(=O)(O)OP(=O)(O)OP(=O)(O)O,-,absorbance,100 µM,90%
O=C(CC(=O)Nc1ccc2ccccc2n1)Nc1ccc(O)cn1,-,RT activity / absorbance,100 µM,84.34%
C/C1=C\C=C\C2(C)C=C(CO)C(C)CC23OC([O-])C(C3=O)C(O)/C=C/C2(C)C=C(C=O)C(C)CC23OC([O-])C(C3=O)C(O)/C(C)=C/C=C/C2C=C(CO)C(C)CC23OC([O-])C(C3=O)C(O)/C=C/C2(C)C=C(C=O)C(C)CC23OC([O-])C(C3=O)C1O,IIIB,RT activity,0.032 µg/mL,29.3%
O=C(NCCc1ccccc1)Nc1cnccn1,-,nucleotide incorporation,0.1 µg/mL,1%
N#Cc1ccc(NC(=O)CC(=O)Nc2ccc3ccccc3n2)nc1,-,RT activity / absorbance,100 µM,86.65%
CC(O)CCCCC[C@H]1CCCCCC[C@@H](C)NC(N)=[NH+]1.F[B-](F)(F)F,-,RT activity / radiometric,40 µM,0%
CCCN1C(=O)c2ccnnc2Oc2ccc(OC)cc21,-,ELISA,330 µM,55%
CCCN1C(=O)c2cc(Cl)nnc2N(CCC)c2ccccc21,-,-,330 µM,54%
O=C1NC(c2c[nH]c3ccccc23)=C/C1=C1\C(=O)NC2C=CC=CC12,-,RT activity / ELISA,1000 µM,17.68%
O=C(CC(=O)Nc1ccc2ccccc2n1)Nc1ccc(Br)cn1,-,RT activity / absorbance,100 µM,80.22%
CCCN1c2ccc(C)cc2N(C)C(=O)c2cc(Cl)nnc21,-,-,33 µM,0%
O=C(NCCc1ccccc1)Nc1nncs1,-,nucleotide incorporation,0.1 µg/mL,12%
COc1cccc2cc(CN(C(=O)c3ccccc3)C3CC3)c(=O)[nH]c12,-,RT activity / absorbance,20 µM,-4%
N#Cc1csc(NC(=O)NCCc2ccccc2)n1,-,nucleotide incorporation,1 µg/mL,93–95%
CN1C(=O)c2cc(Cl)nnc2N(C2CC2)c2ccccc21,-,-,330 µM,72%
O=c1[nH]c(SCc2cn[nH]n2)nc(-c2cccc([N+](=O)[O-])c2)c1Cl,-,RT activity / absorbance,100 µg/mL,65.72%
C[C@@H]1CCCCCC[C@H](CCCCO)[NH+]=C(N)N1,-,RT activity / radiometric,10 µM,0%
CC(=O)O[C@H]1C[C@](C)(O)/C=C/C[C@@H](C)/C=C/[C@@]2(C)CC[C@@H](C(C)(C)OC(C)=O)[C@H]12,-,nucleotide incorporation / radiometric,40 µM,25%
CCCN1C(=O)c2cc(Cl)nnc2N(CC)c2ccccc21,-,-,330 µM,10%
O=C(NCCc1ccccc1)Nc1nc2ccccc2s1,-,nucleotide incorporation,10 µg/mL,40%
CCN1C(=O)c2cc(Cl)nnc2N(C2CC2)c2ccccc21,-,-,330 µM,49%
CCCCCCCC(=O)OCCCC[C@H]1CCCCCC[C@@H](C)NC(N)=[NH+]1,-,RT activity / radiometric,10 µM,16.5%
CCN1c2ccc(C)cc2N(C)C(=O)c2cc(Cl)nnc21,-,-,330 µM,55%
O=c1[nH]c2ccccc2cc1CNC1CCCCC1,-,RT activity / absorbance,20 µM,-20.8%
C[C@@H]1CCCCCC[C@H](CCCCOCc2ccccc2)[NH+]=C(N)N1,-,RT activity / radiometric,10 µM,13.4%
O=C(NCCc1ccccc1)Nc1ccccc1Cl,-,nucleotide incorporation,0.1 µg/mL,5%
CCCCN1C(=O)c2ccnnc2Oc2ccc(C)cc21,-,ELISA,330 µM,44%
COc1cccc2cc(CN(C(=O)c3ccccc3)C3CCCC3)c(=O)[nH]c12,-,RT activity / absorbance,20 µM,-31.4%
Cc1nc(NC(=O)NCCc2ccccc2)sc1C,-,nucleotide incorporation,1 µg/mL,39%
O=c1[nH]c2ccccc2cc1CNC1CC1,-,RT activity / absorbance,20 µM,-12.4%
O=c1[nH]c(SCc2cn[nH]n2)nc(-c2ccc(Cl)cc2)c1Cl,-,RT activity / absorbance,100 µg/mL,85.26%
CCOC(=O)CN1C(=O)c2ccnnc2Oc2ccc(OC)cc21,-,ELISA,33 µM,25%
CCCN1C(=O)c2ccnnc2N(CC)c2ccccc21,-,-,33 µM,31%

For reference, 2 entries again:

compound	strain	read by	dose	result
C[C@@H]1CCCCCC[C@H](CCCCO)[NH+]=C(N)N1	-	RT activity / radiometric	10 µM	0%
O=C1NC(c2c[nH]c3ccccc23)=C/C1=C1\C(=O)NC2C=CC=CC12	-	RT activity / ELISA	1000 µM	17.68%

Percent inhibition refers to the dose given; in toxicity tests it is the harm to the cells. a–b is a range or a potency band. An empty or dashed field is not shown.